Data taken from paper PMC12022044, “Structural basis for saxitoxin congener binding and neutralization by anuran saxiphilins” (2025).

Protein sequences, listed by entry. Tags and fused reporters are not part of them. Residues count along the entry.
UniProt A0A9X9ZA84, 24-854 limits assumed: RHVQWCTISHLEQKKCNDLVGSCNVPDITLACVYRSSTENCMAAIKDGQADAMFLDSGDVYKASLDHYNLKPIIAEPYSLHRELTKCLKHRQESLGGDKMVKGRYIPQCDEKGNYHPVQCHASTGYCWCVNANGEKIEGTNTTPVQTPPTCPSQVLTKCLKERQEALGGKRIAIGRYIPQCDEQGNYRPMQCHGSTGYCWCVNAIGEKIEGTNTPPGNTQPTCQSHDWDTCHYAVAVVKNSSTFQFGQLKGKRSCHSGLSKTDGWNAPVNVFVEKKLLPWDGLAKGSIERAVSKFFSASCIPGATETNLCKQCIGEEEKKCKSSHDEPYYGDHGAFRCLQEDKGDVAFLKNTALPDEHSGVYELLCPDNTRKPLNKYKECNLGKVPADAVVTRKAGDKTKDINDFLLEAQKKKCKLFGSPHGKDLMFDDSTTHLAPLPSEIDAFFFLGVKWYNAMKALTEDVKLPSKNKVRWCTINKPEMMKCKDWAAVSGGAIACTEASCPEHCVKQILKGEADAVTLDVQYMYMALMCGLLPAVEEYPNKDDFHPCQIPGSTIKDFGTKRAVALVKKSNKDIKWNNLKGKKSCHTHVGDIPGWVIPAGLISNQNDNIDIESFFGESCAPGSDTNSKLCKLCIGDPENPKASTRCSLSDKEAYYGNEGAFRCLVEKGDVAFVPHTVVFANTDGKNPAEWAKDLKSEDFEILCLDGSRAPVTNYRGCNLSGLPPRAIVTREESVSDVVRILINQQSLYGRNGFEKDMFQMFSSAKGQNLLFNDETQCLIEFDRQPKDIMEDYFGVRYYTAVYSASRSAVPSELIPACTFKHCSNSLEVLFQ

What was measured:
[1] = target: T1, RcSxph (Aquarana catesbeiana, UniProt P31226); assay: Radioligand receptor binding assay (RBA) with [3H]STX, RcSxph; conditions: for RcSxph ΔΔG / Kd: RBA; for RcSxph ΔΔG: ΔΔG = RT ln(Kdtoxin/KdSTX), T = 298 K; for Fig. S2A Mean (normalized signal): normalized to no-toxin point; for Kd: read-out: RcSxph Kd, [3H]STX
[2] = target: T2, NpSxph (Nanorana parkeri, UniProt A0A9X9ZA84); assay: Fluorescence polarization competition (FPc) assay vs F-STX, NpSxph; conditions: for NpSxph ΔΔG / Kd: FPc; for NpSxph ΔΔG: ΔΔG = RT ln(Kdtoxin/KdSTX), T = 298 K
[3] = target: T1, RcSxph; assay: Fluorescence polarization competition (FPc) assay vs F-STX, RcSxph; conditions: for RcSxph ΔΔG / Kd: FPc; for RcSxph ΔΔG: ΔΔG = RT ln(Kdtoxin/KdSTX), T = 298 K
[4] = target: RcSxph E540A (Aquarana catesbeiana, UniProt P31226, E559A); assay: Radioligand receptor binding assay (RBA) with [3H]STX, RcSxph E540A; conditions: for Mean (raw [3H]STX binding signal): Fig. S2G; for Mean raw [3H]STX binding signal (Fig. S2G): mean of replicates
[5] = target: T2, NpSxph; assay: Radioligand receptor binding assay (RBA) with [3H]STX, NpSxph; conditions: for Mean (normalized [3H]STX binding): Fig. S2D; for Mean (raw [3H]STX binding signal): Fig. S2F; for NpSxph ΔΔG / Kd: RBA; for NpSxph ΔΔG: ΔΔG = RT ln(Kdtoxin/KdSTX), T = 298 K; for Kd: read-out: NpSxph Kd, [3H]STX
[6] = target: T2, NpSxph; assay: Thermofluor (TF) assay, NpSxph; conditions: for NpSxph ΔΔTm: TmSxph+20µM toxin − TmSxph+20µM STX; for NpSxph ΔTm: ΔTm = TmSxph+20µM toxin − TmSxph
[7] = target: T1, RcSxph; assay: Thermofluor (TF) assay, RcSxph; conditions: for RcSxph ΔΔTm: TmSxph+20µM toxin − TmSxph+20µM STX; for RcSxph ΔTm: ΔTm = TmSxph+20µM toxin − TmSxph

Question: What does the source list for gonyautoxin-1/4?
Answer: RcSxph ΔΔG [1]: > 3.0 kcal/mol; Fig. S2C Mean (raw signal) ([1]; Toxin 3.00000 nM): 2997.67; Fig. S2A Mean (normalized signal) ([1]; Toxin 3.00000 nM): 1.027; Fig. S2C Mean (raw signal) ([1]; Toxin 29.99998 nM): 2929.2; Fig. S2A Mean (normalized signal) ([1]; Toxin 29.99998 nM): 1.016; Fig. S2C Mean (raw signal) ([1]; Toxin 100 nM): 2972.4; Fig. S2A Mean (normalized signal) ([1]; Toxin 100 nM): 1.031; Fig. S2C Mean (raw signal) ([1]; Toxin 1000 nM): 2650.6; Fig. S2A Mean (normalized signal) ([1]; Toxin 1000 nM): 0.919; Fig. S2C Mean (raw signal) ([1]; Toxin 10000 nM): 1526.4; Fig. S2A Mean (normalized signal) ([1]; Toxin 10000 nM): 0.529; Kd [1]: > 1000 nM; NpSxph ΔΔG [2]: > 3.7 kcal/mol; Kd ([2]; read-out: NpSxph affinity): > 5000 nM; RcSxph ΔΔG [3]: > 3.7 kcal/mol; Kd ([3]; read-out: RcSxph affinity): > 5000 nM; Mean (raw [3H]STX binding signal) ([4]; Toxin (nM) 3.00000): 80.3333; Mean (raw [3H]STX binding signal) ([4]; Toxin (nM) 29.99998): 84.2; Mean raw [3H]STX binding signal (Fig. S2G) ([4]; Toxin 100 nM): 91.4; Mean raw [3H]STX binding signal (Fig. S2G) ([4]; Toxin 1000 nM): 82; Mean raw [3H]STX binding signal (Fig. S2G) ([4]; Toxin 10000 nM): 63.25; Mean (normalized [3H]STX binding) ([5]; Toxin (nM) 3.00000): 0.9687; Mean (normalized [3H]STX binding) ([5]; Toxin (nM) 29.99998): 1.002; Mean (normalized [3H]STX binding) ([5]; Toxin (nM) 100): 1.031; Mean (normalized [3H]STX binding) ([5]; Toxin (nM) 1000): 0.9573; Mean (normalized [3H]STX binding) ([5]; Toxin (nM) 10000): 0.6204; Mean (raw [3H]STX binding signal) ([5]; Toxin (nM) 3.00000): 2874.33; Mean (raw [3H]STX binding signal) ([5]; Toxin (nM) 29.99998): 3032.6; Mean (raw [3H]STX binding signal) ([5]; Toxin (nM) 100): 3136.71; Mean (raw [3H]STX binding signal) ([5]; Toxin (nM) 1000): 2913.29; Mean (raw [3H]STX binding signal) ([5]; Toxin (nM) 10000): 1885.14; NpSxph ΔΔG [5]: > 3.0 kcal/mol; Kd [5]: > 1000 nM; NpSxph ΔΔTm [6]: -3.3 ± 0.3 °C; NpSxph ΔTm [6]: -0.1 ± 0.1 °C; RcSxph ΔΔTm [7]: -3.8 ± 0.2 °C; RcSxph ΔTm [7]: -0.2 ± 0.1 °C

Question: For gonyautoxin-6, which “RcSxph ΔΔG” value [1] is on record?
Answer: > 3.0 kcal/mol

Question: What about the “Fig. S2C Mean (raw signal)” value ([1]; Toxin 10.00000 nM) of the same substance?
Answer: 2821

Question: And the “Fig. S2A Mean (normalized signal)” value ([1]; Toxin 10.00000 nM)?
Answer: 1.062

Question: And the “Fig. S2C Mean (raw signal)” value ([1]; Toxin 100 nM)?
Answer: 2748.33

Question: What about the “Fig. S2A Mean (normalized signal)” value ([1]; Toxin 100 nM) of the same substance?
Answer: 1.034

Question: And the “Fig. S2C Mean (raw signal)” value ([1]; Toxin 1000 nM)?
Answer: 1647

Question: And the “Fig. S2A Mean (normalized signal)” value ([1]; Toxin 1000 nM)?
Answer: 0.62

Question: And the Kd [1]?
Answer: > 1000 nM

Question: What about the “NpSxph ΔΔG” value [2] of the same substance?
Answer: 2.94 kcal/mol

Question: And the ΔΔGNpSxph ([2]; Fig. 2E, relative to STX)?
Answer: 2.940 kcal/mol

Question: What about the Kd ([2]; read-out: NpSxph Kd, competition with F-STX) of the same substance?
Answer: 1240 nM

Question: What about the “RcSxph ΔΔG” value [3] of the same substance?
Answer: 3.04 kcal/mol

Question: What about the ΔΔGRcSxph ([3]; Fig. 2E, relative to STX) of the same substance?
Answer: 3.040 kcal/mol

Question: What about the Kd ([3]; read-out: RcSxph Kd, competition with F-STX) of the same substance?
Answer: 1520 nM

Question: And the “Mean (raw [3H]STX binding signal)” value ([4]; Toxin (nM) 10.00000)?
Answer: 82.6667

Question: And the “Mean (raw [3H]STX binding signal)” value ([4]; Toxin (nM) 100)?
Answer: 75.6667

Question: And the “Mean raw [3H]STX binding signal (Fig. S2G)” value ([4]; Toxin 1000 nM)?
Answer: 72

Question: And the “Mean (normalized [3H]STX binding)” value ([5]; Toxin (nM) 100)?
Answer: 1.049

Question: And the “Mean (normalized [3H]STX binding)” value ([5]; Toxin (nM) 1000)?
Answer: 0.5703

Question: And the “Mean (raw [3H]STX binding signal)” value ([5]; Toxin (nM) 100)?
Answer: 2947

Question: And the “Mean (raw [3H]STX binding signal)” value ([5]; Toxin (nM) 1000)?
Answer: 1603

Question: What about the “NpSxph ΔΔG” value [5] of the same substance?
Answer: > 3.0 kcal/mol

Question: And the Kd [5]?
Answer: > 1000 nM

Question: And the “NpSxph ΔΔTm” value [6]?
Answer: -3.0 ± 0.4 °C

Question: What about the “NpSxph ΔTm” value [6] of the same substance?
Answer: 0.2 ± 0.2 °C

Question: And the “RcSxph ΔΔTm” value [7]?
Answer: -2.8 ± 0.4 °C

Question: And the “RcSxph ΔTm change (in words)” value ([7]; highest tested concentrations (>10 µM))?
Answer: some minor ΔTm changes

Question: What about the “RcSxph ΔTm” value [7] of the same substance?
Answer: 0.8 ± 0.3 °C
